The source of these data is US5495006.

The series addresses HIV-1 Tat full-length (86 aa) (Human immunodeficiency virus 1) (UniProt P04608). Briefly: competition with a labelled probe. The settings on record: linker B (triethylene glycol) replaces 6-nt loop between the two strands; competes wild-type TAR 27-mer off Tat completely at 1:1 conjugate:Tat; Tat 100 nM; purified recombinant protein; protein details: American Bio-Technologies, Inc.; label: 5'-32P; variant of TAR 27-mer (oligomer 4).

Construct, isoform or probe ends are uncertain for at least one entry.

For the sequence “GGAGAUCUGAGCGCUCUCUCC [TAR conjugate 5B]”, the binding result is listed as “binds”.
